Test results: US6599892B2, “7-alkylidene cephalosporanic acid derivatives and methods of using the same” (Research Corporation Technologies, Inc., priority 1994, dated 2003)
pIC50: −log10 of the molar value.

Amino acid sequences for entries named in this document (tags omitted). Residues count along the entry.
UniProt P62593, 24-286 Q37K limits assumed: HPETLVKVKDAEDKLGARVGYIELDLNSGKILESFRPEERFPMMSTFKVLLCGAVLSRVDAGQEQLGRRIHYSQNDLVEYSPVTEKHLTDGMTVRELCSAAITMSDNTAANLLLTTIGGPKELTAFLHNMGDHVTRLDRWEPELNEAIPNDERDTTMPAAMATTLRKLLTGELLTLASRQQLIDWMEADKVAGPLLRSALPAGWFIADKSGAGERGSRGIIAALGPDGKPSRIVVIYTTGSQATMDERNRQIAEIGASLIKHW
UniProt P05364, whole entry: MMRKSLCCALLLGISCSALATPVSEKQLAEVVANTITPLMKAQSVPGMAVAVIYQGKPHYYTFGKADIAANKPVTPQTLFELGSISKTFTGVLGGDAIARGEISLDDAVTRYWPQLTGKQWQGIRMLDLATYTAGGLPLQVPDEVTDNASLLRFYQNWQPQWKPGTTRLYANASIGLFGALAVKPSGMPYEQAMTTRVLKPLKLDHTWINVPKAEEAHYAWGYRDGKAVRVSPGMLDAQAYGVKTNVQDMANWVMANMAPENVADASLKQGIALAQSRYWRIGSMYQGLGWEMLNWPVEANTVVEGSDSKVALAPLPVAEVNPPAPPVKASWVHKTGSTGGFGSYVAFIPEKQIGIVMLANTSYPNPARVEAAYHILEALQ
UniProt P05364, 21-381 limits assumed: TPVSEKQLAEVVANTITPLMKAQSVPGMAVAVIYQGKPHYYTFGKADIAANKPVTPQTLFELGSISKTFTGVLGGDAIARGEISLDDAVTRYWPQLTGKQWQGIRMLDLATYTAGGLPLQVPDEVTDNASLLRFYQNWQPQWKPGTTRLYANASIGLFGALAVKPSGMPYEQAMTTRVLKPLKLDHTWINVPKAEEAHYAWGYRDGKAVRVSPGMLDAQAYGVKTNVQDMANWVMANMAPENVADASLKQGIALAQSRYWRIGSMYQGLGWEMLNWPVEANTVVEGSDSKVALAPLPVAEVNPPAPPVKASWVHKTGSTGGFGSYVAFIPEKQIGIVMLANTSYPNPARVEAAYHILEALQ

Key:
[1] = target: E. coli. W3310 β-lactamase (TEM2) (Escherichia coli, UniProt P62593, Q37K); settings: tested form: Na salt
[2] = target: Class C β-lactamase of Enterobacter cloacae P99 (Enterobacter cloacae, UniProt P05364); settings: read-out: IC50 (nM) E. cloacea P99; 10 minute incubation of enzyme and inhibitor; nitrocefin substrate; tested form: Na salt
[3] = target: E. cloacae SC 12368 β-lactamase (Enterobacter cloacae, UniProt P05364); settings: read-out: IC50 (nM) E. cloacea SC12368; 10 minute incubation of enzyme and inhibitor; nitrocefin substrate; tested form: Na salt

With `COC(=O)/C=C1/C(=O)N2C(C(=O)O)=C(COC(C)=O)CS(=O)(=O)C12` (stereo not drawn) the pIC50 [1] was 8.10, the IC50 [2] was greater than 20000 nM and the IC50 [3] was greater than 20000 nM.
